From patent US12492189B2, “Solid forms of an HIV capsid inhibitor” (Gilead Sciences, Inc., priority 2017, dated 2025) come the findings set out here.

The structures appear in SMILES notation.

The test system of this data set is MT4 cells. Put plainly: Test B: Cytotoxicity Assay (uninfected cells). The format is cell-based. Particulars: 5 days, CellTiter-Glo.

The compound `Cn1nc(NS(C)(=O)=O)c2c(Cl)ccc(-c3ccc(C#CC(C)(C)O)nc3[C@H](Cc3cc(F)cc(F)c3)NC(=O)Cn3nc(C(F)(F)F)c4c3C(F)(F)[C@@H]3C[C@H]43)c21` [Compound B, reference compound] yielded a CC50 of 14.5 µM.

As to `Cn1nc(NS(C)(=O)=O)c2c(Cl)ccc(-c3ccc(C#CC(C)(C)O)nc3[C@H](Cc3cc(F)cc(F)c3)NC(=O)Cn3nc(C(F)F)c4c3C(F)(F)[C@@H]3C[C@H]43)c21` [Compound A], the CC50 was 21.8 µM.
